Protein sequences, listed by entry. Tags and fused reporters are not part of them. Residues count along the entry.
UniProt Q9Y275, 82-285: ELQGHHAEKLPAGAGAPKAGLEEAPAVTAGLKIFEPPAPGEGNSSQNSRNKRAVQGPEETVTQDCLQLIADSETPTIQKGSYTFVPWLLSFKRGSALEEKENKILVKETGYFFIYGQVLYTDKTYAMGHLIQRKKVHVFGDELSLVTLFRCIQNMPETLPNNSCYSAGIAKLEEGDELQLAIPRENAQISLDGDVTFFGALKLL

In patent US20050163775A1, “Combination therapy for B cell disorders” (Genentech, Inc., priority 2003, published 2005):

Target: T1, BAFF (Homo sapiens, UniProt Q9Y275)
T1 construct: A DNA fragment encoding human BAFF (residues 82-285) was cloned; His-tag (with thrombin cleavage site) (N, cleaved yes); made in house; host or cells: E. coli BL21 (DE3)
Assay: Competitive displacement ELISA (biotinylated miniBR3), 17-mers vs BR3 ECD
Assay type: binding
Conditions: from IC50 values of competitive displacement ELISA

Molecule | affinity for BAFF relative to BR3 ECD
CC(=O)N[C@@H](CCC(=O)O)C(=O)N[C@H]1CSSC[C@@H](C(=O)NCC(=O)N[C@@H](CC(C)C)C(=O)N[C@@H](CC(C)C)C(=O)N[C@@H](CCCNC(=N)N)C(N)=O)NC(=O)[C@@H]2CCCN2C(=O)[C@H](C(C)C)NC(=O)[C@H](Cc2c[nH]c3ccccc23)NC(=O)[C@H](Cc2c[nH]cn2)NC(=O)[C@H](CCCNC(=N)N)NC(=O)[C@H](C(C)C)NC(=O)[C@H](CC(C)C)NC(=O)[C@H](CC(C)C)NC(=O)[C@H](CC(=O)O)NC(=O)[C@H](Cc2ccccc2)NC1=O [BLyS0048] | greater affinity for BAFF than the 62-mer BR3 ECD
Ac-ECFDLLVRAWVPCSVLK-NH2 (N-acetyl, C-amide; sequence is synthesized) [BLyS0051] | greater affinity for BAFF than the 62-mer BR3 ECD
Ac-ECFDLLVRHWVACGLLR-NH2 (N-acetyl, C-amide; sequence is synthesized) [BLyS0027] | greater affinity for BAFF than the 62-mer BR3 ECD
